Measured values from several laboratories, pooled; numbers as filed in NIAID ChemDB.

All rows: whole-cell or culture tests

Two numbers with a dash give a range or band. Fold resistance has wild type as its base. An empty or dashed field is not shown. ECn is the concentration giving n% inhibition of infection, replication or growth. Zones are inhibition diameters on agar. Rows are shuffled and stem from different studies. A number after MIC or MFC names an inhibition level or a share of isolates. Inhibition is in % at the dose shown (toxicity tests: loss of growth or viability).

compound,mutations,endpoint,tested at,organism,cells,strain or isolate,read by,result
CC(C)(O)c1cn(-c2ccc([N+](=O)[O-])cc2)nn1,-,inhibition,2048 µg/mL,Candida tropicalis,-,URM 916,broth dilution,0%
O=C(NCc1ccc(Cl)cc1)c1c[nH]c2ccc(C#CCO)cc2c1=O,-,EC50,-,Rat cytomegalovirus,-,-,plaque count,0.6 µM
O=C(NCCc1ccccc1)Nc1nc2ccc(F)cc2s1,-,inhibition,10 µg/mL,HIV-2,MT-4,-,RT activity,62%
CCCC(CCC)C(NC(C)=O)C1C(N=C(N)N)CC(C(=O)O)C1O,-,EC50,-,Influenza A virus,MDCK,H1N1 A/PR/8/34,-,0.7 µM
CCc1nc2cc(F)ccn2c1C(=O)NCc1ccc(N2CCN(c3ccc(C(F)(F)F)cn3)[C@@H](C)C2)c(F)c1.Cl,-,inhibition,0.0048 µM,Mycobacterium avium,-,-,fluorescence,85%
CN1C(=O)[C@@H](Cc2ccccc2)NC1=S,-,inhibition,1 µg/mL,HIV-2,MT-4,-,cytopathic effect / XTT,0%
CSc1nsc(-c2ccc[n+](C)c2)c1C#N,-,EC50,-,Measles virus,HEP-2,Edmonston,plaque count,>1250 µM
O=C(NNC(=O)Nc1ccccc1C(F)(F)F)Nc1cc(C(F)(F)F)cc(C(F)(F)F)c1,-,MIC,-,Escherichia coli,-,ES142,-,>300 µM
O=C(NCCc1ccccc1)Nc1nncs1,-,inhibition,1 µg/mL,HIV-2,MT-4,-,RT activity,100%
OC[C@H]1O[C@@H](n2cnc3c(SCc4ccc(Cl)cc4Cl)ncnc32)[C@H](O)[C@@H]1O,-,inhibition,10 µM,Toxoplasma gondii,-,RH (WILD TYPE),-,20.9%
Oc1ccccc1N=Cc1ccccc1,-,MIC99,-,Cryptococcus gattii,-,196L/03,-,8 µg/mL
CO[C@H]1/C=C/O[C@@]2(C)Oc3c(C)c(O)c4c(O)c(c5c(c4c3C2=O)NC2(CCN(CC(C)C)CC2)N=5)=NC(=O)/C(C)=C\C=C\[C@H](C)[C@H](O)[C@@H](C)[C@@H](O)[C@@H](C)[C@H](OC(C)=O)[C@@H]1C,-,MIC,-,Mycobacterium avium intracellulare,-,15-Feb,-,0.25 µg/mL
CSc1nsc(-c2ccc(C(F)(F)F)cc2)c1C#N,-,EC50,-,Adenovirus,HEP-2,TYPE 2,plaque count,>14 µM
Nc1ncnc2c1ncn2[C@@H]1CC[C@@H](O)[C@H]1O,-,EC50,-,Measles virus,CV-1,X-1108,cytopathic effect,>10 µg/mL
CC(C)(O)c1cn(-c2ccc3ccccc3c2)nn1,-,inhibition,2048 µg/mL,Candida albicans,-,URM 4126,broth dilution,0%
O=C(O)P(=O)(O)O,-,inhibition,50 µM,Cytomegalovirus,HFF,AD169,hybridisation,17.4%
Nc1ncnc2c1ncn2[C@H]1CC[C@H](O)[C@@H]1O,-,EC50,-,Measles virus,CV-1,-,neutral red,<0.1 µg/mL
N#Cc1cc([N+](=O)[O-])ccc1Oc1ccc(Cl)c(Cl)c1,-,inhibition,6.25 µg/mL,Coxsackie virus,VERO,TYPE A21,-,100%
CC(C)(O)c1cn(-c2cccc([N+](=O)[O-])c2)nn1,-,inhibition,2048 µg/mL,Candida parapsilosis,-,URM 4261,broth dilution,0%
O=C(NCc1c(F)ccc2nccnc12)c1c2n(c(=O)n1-c1ccc(-n3cccn3)cc1)CCN(C(=O)c1ccc(Br)c(Cl)c1)C2,-,EC50,-,Hepatitis B virus,HepG2.117,-,PCR,0.1–0.5 µM
Nc1ncnc2c1ncn2[C@@H]1C[C@H](N)[C@@H](O)[C@H]1O,-,EC50,-,Measles virus,CV-1,-,virus yield,0.1 µg/mL
Nc1ccn([C@@H]2CS[C@H](CO)O2)c(=O)n1,-,EC50,-,Duck hepatitis B virus,Primary duck hepatocytes,-,-,0.5 µM
CSc1nsc(-c2ccccn2)c1C#N,-,EC50,-,Encephalomyocarditis virus,L929,Encephalomyocarditis virus,plaque count,10 µM
Nc1ncnc2c1ncn2[C@@H]1C=C[C@@H](O)[C@H]1O,-,EC50,-,Measles virus,CV-1,Chicago,neutral red,1 µg/mL
CCOC(=O)c1c(C)nc(OCCCNc2ccnc3cc(Cl)ccc23)nc1-c1ccccc1,-,MIC99,-,Cryptococcus gattii,-,L 27/01,-,32 µg/mL
CCc1nc2cc(F)ccn2c1C(=O)NCc1ccc(C2CCN(c3ccc(C(F)(F)F)cc3)CC2)cc1F.Cl,-,inhibition,0.0024 µM,Mycobacterium avium,-,-,fluorescence,85%
O=C1[C@@H](Cc2ccc(O)cc2)NC(=S)N1c1ccccc1,-,inhibition,1 µg/mL,HIV-2,MT-4,-,cytopathic effect / XTT,0%
Oc1ccccc1N=Cc1ccc(F)cc1,-,MIC99,-,Cryptococcus neoformans,-,96806,-,5.7 µg/mL
CCC(CC)[C@H](NC(C)=O)[C@@H]1[C@H](O)[C@@H](C(=O)O)C[C@H]1N=C(N)N,-,EC50,-,Influenza A virus,MDCK,Influenza A/Johannesburg/33/94 (H3N2),-,0.16 µM
CCC(C)CC(C)CCCCCCCCC(=O)N[C@H]1C[C@@H](O)[C@H](NCCN)NC(=O)[C@@H]2[C@@H](O)CCN2C(=O)[C@H]([C@H](O)CCN)NC(=O)[C@H]([C@H](O)[C@@H](O)c2ccc(O)cc2)NC(=O)[C@@H]2C[C@@H](O)CN2C(=O)[C@H]([C@@H](C)O)NC1=O,-,MIC,-,Cryptococcus gattii,-,CBS 10090,broth dilution,32 µg/mL
CCc1nc2ccc(Cl)cn2c1C(=O)NCc1ccc(N2CCN(c3ccc(OC(F)(F)F)cc3)[C@@H](C)C2)c(F)c1,-,inhibition,0.003 µM,Mycobacterium avium,-,-,fluorescence,85%
Cc1nc(NC(=O)NCCc2ccccc2)sc1C,-,inhibition,10 µg/mL,HIV-2,MT-4,-,RT activity,61%
COc1ccc(-n2c(-c3ccccc3)c3n(c2=O)CCN(C(=O)c2ccc(Cl)c(Cl)c2)C3)cc1,-,EC50,-,Hepatitis B virus,HepG2.117,-,PCR,>5 µM
NC(=O)NNC(=O)Nc1cc(C(F)(F)F)cc(C(F)(F)F)c1,-,MIC,-,Klebsiella pneumoniae,-,KL21,-,223 µM
CC1(C)N=C(N)N=C(N)N1OCCCOc1cc(Cl)c(Cl)cc1Cl,-,MIC,-,Mycobacterium avium complex,-,GRE,-,2 µg/mL
Oc1ccc(O)c(C=Nc2ccccc2O)c1,-,MIC99,-,Cryptococcus gattii,-,L 27/01,-,11.3 µg/mL
O=C(N[C@@H](C(=O)N1CCC[C@H]1c1ncc(-c2ccc(-c3ccc(-c4cnc([C@@H]5CCCN5C(=O)[C@H](NC(=O)C5CC5)c5ccccc5)s4)cc3)cc2)s1)c1ccccc1)C1CC1,M202L,fold resistance,-,Hepatitis C virus,Huh7.5,genotype 1b,luciferase / reporter gene,1
Nc1nc2c(ncn2COCCO)c(=O)[nH]1,-,EC50,-,Guinea pig herpesvirus,GPE,Lymphotropic,plaque count,144.5 µg/mL
CCc1nc2ccc(Cl)cn2c1C(=O)NCc1ccc(C2CCN(c3ccc(C(C)(C)C)cc3)CC2)cc1F.Cl,-,inhibition,0.017 µM,Mycobacterium avium,-,-,fluorescence,85%
C[C@@H](NC(=O)c1c2n(c(=O)n1-c1ccc(OCC(F)(F)F)cc1)CCN(C(=O)c1ccc(Br)c(Cl)c1)C2)c1ccc(OCC(N)=O)cc1F,-,EC50,-,Hepatitis B virus,HepG2.117,-,PCR,0.5–5 µM
CSc1nsc(-c2ccc(OCc3ccccc3)cc2)c1C#N,-,EC50,-,Encephalomyocarditis virus,L929,Encephalomyocarditis virus,plaque count,20 µM
O=C(NCc1ccccc1)c1c2n(c(=O)n1-c1ccc3c(c1)OCO3)CCN(C(=O)c1ccc(Cl)c(Cl)c1)C2,-,EC50,-,Hepatitis B virus,HepG2.117,-,PCR,0.5–5 µM
Cc1cc(CCCOc2c(C)cc(-c3noc(C(F)(F)F)n3)cc2C)on1,-,EC50,-,Rhinovirus,OHIO HELA-I,Isolate 20,cytopathic effect / visual reading,>1 µg/mL
Cc1ccc(-n2cc(C(C)(C)O)nn2)cc1C,-,inhibition,2048 µg/mL,Candida krusei,-,URM 4263,broth dilution,0%
Cn1cc(C(=O)NCc2ccc(Cl)cc2)c(=O)c2cc(CN3CCOCC3)ccc21,-,inhibition,3.4 µM,Varicella zoster virus,HFF,SL varicella isolate,plaque count,90%
CCCCOc1ccc(-c2snc(SC)c2C#N)cc1,-,EC50,-,Encephalomyocarditis virus,L929,Encephalomyocarditis virus,plaque count,3 µM
Cc1nc(NCCCCNc2ccnc3cc(Cl)ccc23)nc(-c2ccccc2)c1C(=O)OC(C)C,-,MIC99,-,Cryptococcus gattii,-,29/10893,-,4 µg/mL
O=C(NCCc1ccccc1)Nc1nc2ccc(Cl)cc2s1,-,inhibition,0.1 µg/mL,HIV-2,MT-4,-,RT activity,1%
C=CCc1ccc(O)c(OC)c1,-,MIC90,-,Candida tropicalis,-,3189,turbidity,490 µg/mL
CC(C)(Oc1ccc(CNC(=O)c2c3n(c(=O)n2-c2ccc(OCC(F)(F)F)cc2)CCN(C(=O)c2ccc(Br)c(Cl)c2)C3)c(F)c1)C(N)=O,-,EC50,-,Hepatitis B virus,HepG2.117,-,PCR,0.1–0.5 µM
O=c1[nH]c(=O)n([C@H]2C[C@H](O)[C@@H](CO)O2)cc1Br,-,inhibition,12.68 µg/mL,Murine polyoma virus,ME,-,hybridisation,86.5%
Nc1ncnc2c1ncn2[C@@H]1C[C@H](O)[C@@H](O)[C@H]1O,-,EC50,-,Measles virus,CV-1,-,virus yield,0.5 µg/mL
O=C(Nc1cc(C(F)(F)F)cc(C(F)(F)F)c1)NN(CC(O)CN1CCOCC1)C(=O)Nc1cc(C(F)(F)F)cc(C(F)(F)F)c1,-,MIC,-,Klebsiella pneumoniae,-,KL21,-,>300 µM
O=C1[C@@H](Cc2ccccc2)NC(=S)N1Cc1ccccc1,-,inhibition,1 µg/mL,HIV-2,MT-4,-,cytopathic effect / XTT,35%
Cc1ccc2c(c1)C(C1SCC(=O)N1NC(=O)N1c3ccccc3C=Cc3ccccc31)C(c1ccccc1)=N2,-,zone,750 µg/mL,Aspergillus oryzae,-,MTCC-3567,agar diffusion,5 mm
OC[C@H]1O[C@@H](n2cnc3c(SCc4ccc(OC(F)(F)F)cc4)ncnc32)[C@H](O)[C@@H]1O,-,inhibition,10 µM,Toxoplasma gondii,-,RH (WILD TYPE),-,35.1%
O=C(NN=CC1C(c2ccccc2)=Nc2ccc(Cl)cc21)N1c2ccccc2C=Cc2ccccc21,-,zone,500 µg/mL,Aspergillus oryzae,-,MTCC-3567,agar diffusion,11 mm
Cc1ccc2nc(Cl)c(C(=O)NCc3ccc(N4CCN(c5ccc(OC(F)(F)F)cc5)[C@@H](C)C4)c(F)c3)n2c1.Cl,-,inhibition,0.0036 µM,Mycobacterium avium,-,-,fluorescence,85%
CN(NC(=O)Nc1cc(C(F)(F)F)cc(C(F)(F)F)c1)C(=O)Nc1cc(C(F)(F)F)cc(C(F)(F)F)c1,-,MIC,-,Escherichia coli,-,ES142,-,>300 µM
CCO/N=C/c1ccc(OCCC2CCN(c3ccc(Cl)nn3)CC2)cc1,-,EC50,-,Rhinovirus,KB,1505 (ICAM-1 receptor group 48),neutral red,0.103 µM
OC[C@H]1O[C@@H](n2c(Br)nc3cc(Cl)c(Cl)cc32)[C@H](O)[C@@H]1O,-,EC95,-,Human cytomegalovirus,-,R56,virus yield,3 µM
O=C(NN1C(=O)CSC1C1C(c2ccccc2)=Nc2ccccc21)N1c2ccccc2C=Cc2ccccc21,-,zone,1000 µg/mL,Aspergillus oryzae,-,MTCC-3567,agar diffusion,13 mm
O=C(NCCc1ccccc1)Nc1cncc(Cl)n1,-,inhibition,10 µg/mL,HIV-2,MT-4,-,cytopathic effect / XTT,16–60%
CCCC(CCC)C(NC(C)=O)C1CC(C(=O)O)CC1N=C(N)N,-,EC50,-,Influenza B virus,MDCK,HONG KONG/5/72,-,1.8 µM
C=C/C(C)=C/[C@@]1(C)SC(=O)C(C)=C1O,-,MIC,-,Escherichia coli,-,UB1005/PBR322,-,150 µM

Again, the opening 8 rows:

compound	mutations	endpoint	tested at	organism	cells	strain or isolate	read by	result
CC(C)(O)c1cn(-c2ccc([N+](=O)[O-])cc2)nn1	-	inhibition	2048 µg/mL	Candida tropicalis	-	URM 916	broth dilution	0%
O=C(NCc1ccc(Cl)cc1)c1c[nH]c2ccc(C#CCO)cc2c1=O	-	EC50	-	Rat cytomegalovirus	-	-	plaque count	0.6 µM
O=C(NCCc1ccccc1)Nc1nc2ccc(F)cc2s1	-	inhibition	10 µg/mL	HIV-2	MT-4	-	RT activity	62%
CCCC(CCC)C(NC(C)=O)C1C(N=C(N)N)CC(C(=O)O)C1O	-	EC50	-	Influenza A virus	MDCK	H1N1 A/PR/8/34	-	0.7 µM
CCc1nc2cc(F)ccn2c1C(=O)NCc1ccc(N2CCN(c3ccc(C(F)(F)F)cn3)[C@@H](C)C2)c(F)c1.Cl	-	inhibition	0.0048 µM	Mycobacterium avium	-	-	fluorescence	85%
CN1C(=O)[C@@H](Cc2ccccc2)NC1=S	-	inhibition	1 µg/mL	HIV-2	MT-4	-	cytopathic effect / XTT	0%
CSc1nsc(-c2ccc[n+](C)c2)c1C#N	-	EC50	-	Measles virus	HEP-2	Edmonston	plaque count	>1250 µM
O=C(NNC(=O)Nc1ccccc1C(F)(F)F)Nc1cc(C(F)(F)F)cc(C(F)(F)F)c1	-	MIC	-	Escherichia coli	-	ES142	-	>300 µM